Laboratory results: patent US20200024330A1

Assays:
Experiment in all cases: cell-based or functional assay
[1] = target: panel of HIV-1 pseudoviruses of Table 52
[2] = target: All HIV-1 pseudoviruses (Env) of the cross-clade 162-pseudovirus panel, n=162
[3] = target: HIV-1 Env of all pseudoviruses of the cross-clade 162-pseudovirus panel (n=162)
[4] = target: HIV-1 clade F pseudoviruses (Env) of the cross-clade 162-pseudovirus panel, n=15
[5] = target: HIV-1 clade B pseudoviruses (Env) of the cross-clade 162-pseudovirus panel, n=31
[6] = target: HIV-1 clade AE pseudoviruses (Env) of the cross-clade 162-pseudovirus panel, n=10
[7] = target: HIV-1 clade D pseudoviruses (Env) of the cross-clade 162-pseudovirus panel, n=25
[8] = target: HIV-1 clade G pseudoviruses (Env) of the cross-clade 162-pseudovirus panel, n=15
[9] = target: 162-pseudovirus panel representing all major circulating HIV-1 subtypes
[10] = target: HIV-1 clade A pseudoviruses (Env) of the cross-clade 162-pseudovirus panel, n=26
[11] = target: HIV-1 clade C pseudoviruses (Env) of the cross-clade 162-pseudovirus panel, n=27
[12] = target: HIV-1 clade AG pseudoviruses (Env) of the cross-clade 162-pseudovirus panel, n=10
[13] = target: HIV-1 Env of the clade G pseudoviruses of the cross-clade 162-pseudovirus panel (n=15)
[14] = target: HIV-1 Env of the clade AG pseudoviruses of the cross-clade 162-pseudovirus panel (n=10)
[15] = target: HIV-1 Env of the clade B pseudoviruses of the cross-clade 162-pseudovirus panel (n=31)
[16] = target: HIV-1 Env of the clade D pseudoviruses of the cross-clade 162-pseudovirus panel (n=25)
[17] = target: HIV-1 Env of the clade A pseudoviruses of the cross-clade 162-pseudovirus panel (n=26)
[18] = target: HIV-1 Env of the clade C pseudoviruses of the cross-clade 162-pseudovirus panel (n=27)
[19] = target: HIV-1 Env of the clade AE pseudoviruses of the cross-clade 162-pseudovirus panel (n=10)
[20] = target: HIV-1 Env of the clade F pseudoviruses of the cross-clade 162-pseudovirus panel (n=15)
[21] = target: HIV-1 Env of all pseudoviruses of the cross-clade 162-pseudovirus panel (n = 162)

Row | Binder | median IC50 (ug/ml), pseudovirus neutralization [1] | Median IC50 (µg/ml) against viruses neutralized with an IC50 <50 µg/ml [2] | Percent viruses neutralized, IC50 <0.1 µg/ml [9] | Percent viruses neutralized, IC50 <1 µg/ml [9] | Percent viruses neutralized, IC50 <50 µg/ml [9] | Median IC50 (µg/ml) against viruses neutralized with an IC50 <50 µg/ml [16] | Percent viruses neutralized with an IC50 <50 µg/ml [5] | Percent viruses neutralized with an IC50 <50 µg/ml [7] | Median IC50 (µg/ml) against viruses neutralized with an IC50 <50 µg/ml [20] | Percent viruses neutralized with an IC50 <50 µg/ml [8] | Median IC50 (µg/ml) against all viruses [21] | also measured
1 | PGT-141 (4964_G22; 4993_K13) (antibody, V domains shown) VH: QVQLVQSGPEVKKPGSSVKVSCKASGNTFSKYDVHWVRQATGQGLEWVGWMSHEGDKTESAQRFKGRVTFTRDTSASTAYMELRGLTSDDTAIYYCTRGSKHRLRDYVLYDDYGLINYQEWNDYLEFLDVWGHGTAVTVSS VL: DTVVTQSPLSLPVTPGEAASMSCSSTQSLRHSNGANYLAWYQHKPGQSPRLLIRLGSQRASGVPDRFSGSGSGTHFTLKISRVEAEDAAIYYCMQGLNRPWTFGKGTKLEIK | 0.5 µg/mL |  |  |  |  |  |  |  |  |  |  | 
2 | 4970_K22 (PGT-144) (antibody, V domains shown) VH: QVQLVQSGAEVKKPGSSVKVSCKASGNTFRKYDVHWVRQATGQGLEWVGWMSHEGDKTESAQRFKGRVSFTRDNSASTAYIELRGLTSDDTAIYYCTGGSKHRLRDYVLYDDYGLINQQEWNDYLEFLDVWGHGTAVTVSS VL: DTVVTQSPLSLSVTPGEAASMSCTSTQSLRHSNGANYLAWYQHKPGQSPRLLIRLGSQRASGVPDRFSGSGSGTHFTLKISRVEADDAAIYYCMQGLNRPWTFGKGTKLEIK |  | 8.37 µg/mL | 3% | 16% | 38% |  |  |  |  |  |  | Median IC50 (µg/ml) against all viruses [3]: 50 µg/mL; Median IC50 (µg/ml) against viruses neutralized with an IC50 <50 µg/ml [4]: 7.79 µg/mL; Median IC50 (µg/ml) against viruses neutralized with an IC50 <50 µg/ml [5]: 7.06 µg/mL; Median IC50 (µg/ml) against viruses neutralized with an IC50 <50 µg/ml [6]: 3.41 µg/mL; Median IC50 (µg/ml) against viruses neutralized with an IC50 <50 µg/ml [7]: 19.1 µg/mL; Median IC50 (µg/ml) against viruses neutralized with an IC50 <50 µg/ml [8]: 7.57 µg/mL; Median IC50 (µg/ml) against viruses neutralized with an IC50 <50 µg/ml [10]: 4.31 µg/mL; Median IC50 (µg/ml) against viruses neutralized with an IC50 <50 µg/ml [11]: 12.4 µg/mL
3 | PGT-142 (4995_E20) (antibody, V domains shown) VH: QVQLVQSGPEVKKPGSSVKVSCKASGNTFSKYDVHWVRQATGQGLEWVGWISHERDKTESAQRFKGRVTFTRDTSATTAYMELRGLTSDDTAIYYCTRGSKHRLRDYVLYDDYGLINYQEWNDYLEFLDVWGHGTAVTVSS VL: DTVVTQSPLSLPVTPGEAASMSCSSTQSLRHSNGANYLAWYQHKPGQSPRLLIRLGSQRASGVPDRFSGSGSGTHFTLKISRVEAEDAAIYYCMQGLNRPWTFGKGTKLEIK | 0.25 µg/mL |  |  |  |  |  |  |  |  |  |  | 
4 | PGT-143 (4980_N08) (antibody, V domains shown) VH: QVQLEQSGAEVKKPGSSVKVSCKASGNTFSKYDVHWVRQATGQGLEWVGWMSHEGDKTESAQRFKGRVTFTRDTSASTAYMELRGLTSDDTAIYYCTRGSKHRLRDYVLYDDYGLINYQEWNDYLEFLDVWGHGTAVTVSS VL: DTVVTQSPLSLPVTPGEAASMSCTSTQSLRHSNGANYLAWYQHKPGQSPRLLIRLGSQRASGVPDRFSGSGSGTHFTLKISRVEPEDAAIYYCMQGLNRPWTFGKGTKLEIK | 0.37 µg/mL |  |  |  |  |  |  |  |  |  |  | 
5 | 4993_K13 (PGT-141) (antibody, V domains shown) VH: QVQLVQSGPEVKKPGSSVKVSCKASGNTFSKYDVHWVRQATGQGLEWVGWMSHEGDKTESAQRFKGRVTFTRDTSASTAYMELRGLTSDDTAIYYCTRGSKHRLRDYVLYDDYGLINYQEWNDYLEFLDVWGHGTAVTVSS VL: DTVVTQSPLSLPVTPGEAASMSCSSTQSLRHSNGANYLAWYQHKPGQSPRLLIRLGSQRASGVPDRFSGSGSGTHFTLKISRVEAEDAAIYYCMQGLNRPWTFGKGTKLEIK |  | 3.8 µg/mL | 15% | 36% | 56% |  |  |  |  |  |  | Median IC50 (µg/ml) against all viruses [3]: 18 µg/mL; Median IC50 (µg/ml) against viruses neutralized with an IC50 <50 µg/ml [4]: 4.55 µg/mL; Median IC50 (µg/ml) against viruses neutralized with an IC50 <50 µg/ml [5]: 4.62 µg/mL; Median IC50 (µg/ml) against viruses neutralized with an IC50 <50 µg/ml [12]: 3.66 µg/mL; Median IC50 (µg/ml) against viruses neutralized with an IC50 <50 µg/ml [6]: 0.03 µg/mL; Median IC50 (µg/ml) against viruses neutralized with an IC50 <50 µg/ml [7]: 25.1 µg/mL; Median IC50 (µg/ml) against all viruses [13]: 4.69 µg/mL; Median IC50 (µg/ml) against viruses neutralized with an IC50 <50 µg/ml [8]: 1.58 µg/mL; Median IC50 (µg/ml) against all viruses [14]: 31 µg/mL; Median IC50 (µg/ml) against viruses neutralized with an IC50 <50 µg/ml [10]: 2.88 µg/mL; Median IC50 (µg/ml) against viruses neutralized with an IC50 <50 µg/ml [11]: 3.83 µg/mL
6 | PGT-144 (4970_K22) (antibody, V domains shown) VH: QVQLVQSGAEVKKPGSSVKVSCKASGNTFRKYDVHWVRQATGQGLEWVGWMSHEGDKTESAQRFKGRVSFTRDNSASTAYIELRGLTSDDTAIYYCTGGSKHRLRDYVLYDDYGLINQQEWNDYLEFLDVWGHGTAVTVSS VL: DTVVTQSPLSLSVTPGEAASMSCTSTQSLRHSNGANYLAWYQHKPGQSPRLLIRLGSQRASGVPDRFSGSGSGTHFTLKISRVEADDAAIYYCMQGLNRPWTFGKGTKLEIK | 0.16 µg/mL |  |  |  |  |  |  |  |  |  |  | 
7 | 5136_H01 (PGT-131) (antibody, V domains shown) VH: QVQLQESGPGLVKPSETLSLTCTVSGDSINTGHHYWGWVRQVPGKGPEWIAHIHYNTAVLHNPALKSRVTISIFTLKNLITLSLSNVTAADTAVYFCVRSGGDILYYIEWQKPHWFYPWGPGILVTVSS VL: QSALTQPPSASGSLGQSLTISCSGTGSDIGSWNFVSWYQQFPGRAPNLIIFEVNRRRSGVPDRFSGSKSGNTASLTVSGLRSEDEAEYFCSSLSGRWDIVFGGGTKVTVL |  | 0.54 µg/mL | 13% | 23% | 40% | 2.67 µg/mL | 29% | 8% | 1.92 µg/mL | 0% | 50 µg/mL | Median IC50 (µg/ml) against viruses neutralized with an IC50 <50 µg/ml [15]: 0.5 µg/mL; Percent viruses neutralized with an IC50 <50 µg/ml [4]: 7%; Median IC50 (µg/ml) against viruses neutralized with an IC50 <50 µg/ml [17]: 0.73 µg/mL; Median IC50 (µg/ml) against viruses neutralized with an IC50 <50 µg/ml [18]: 15.8 µg/mL; Median IC50 (µg/ml) against viruses neutralized with an IC50 <50 µg/ml [19]: 0.21 µg/mL; Median IC50 (µg/ml) against viruses neutralized with an IC50 <50 µg/ml [14]: 0.16 µg/mL; Percent viruses neutralized with an IC50 <50 µg/ml [11]: 21%
8 | 5114_A19 (PGT-128) (antibody, V domains shown) VH: QPQLQESGPTLVEASETLSLTCAVSGDSTAACNSFWGWVRQPPGKGLEWVGSLSHCASYWNRGWTYHNPSLKSRLTLALDTPKNLVFLKLNSVTAADTATYYCARFGGEVLRYTDWPKPAWVDLWGRGTLVTVSS VL: QSALTQPPSASGSPGQSITISCTGTSNNFVSWYQQHAGKAPKLVIYDVNKRPSGVPDRFSGSKSGNTASLTVSGLQTDDEAVYYCGSLVGNWDVIFGGGTKLTVL |  | 0.32 µg/mL | 50% | 60% | 72% | 0.12 µg/mL | 77% | 48% | 1.17 µg/mL | 47% | 0.1 µg/mL | Percent viruses neutralized with an IC50 <50 µg/ml [4]: 53%; Median IC50 (µg/ml) against viruses neutralized with an IC50 <50 µg/ml [19]: 1.47 µg/mL; Median IC50 (µg/ml) against viruses neutralized with an IC50 <50 µg/ml [9]: 0.02 µg/mL; Median IC50 (µg/ml) against viruses neutralized with an IC50 <50 µg/ml [14]: 0.13 µg/mL; Percent viruses neutralized with an IC50 <50 µg/ml [10]: 50%
9 | 5343_B08 (PGT-135) (antibody, V domains shown) VH: QLQMQESGPGLVKPSETLSLSCTVSGDSIRGGEWGDKDYHWGWVRHSAGKGLEWIGSIHWRGTTHYKESLRRRVSMSIDTSRNWFSLRLASVTAADTAVYFCARHRHHDVFMLVPIAGWFDVWGPGVQVTVSS VL: EIVMTQSPDTLSVSPGETVTLSCRASQNINKNLAWYQYKPGQSPRLVIFETYSKIAAFPARFVASGSGTEFTLTINNMQSEDVAVYYCQQYEEWPRTFGQGTKVDIK |  | 1.13 µg/mL | 13% | 23% | 33% | 1.13 µg/mL | 23% | 8% | 1.26 µg/mL | 20% | 50 µg/mL | Median IC50 (µg/ml) against viruses neutralized with an IC50 <50 µg/ml [15]: 2.87 µg/mL; Median IC50 (µg/ml) against viruses neutralized with an IC50 <50 µg/ml [17]: 1.01 µg/mL; Median IC50 (µg/ml) against viruses neutralized with an IC50 <50 µg/ml [18]: 0.28 µg/mL; Median IC50 (µg/ml) against viruses neutralized with an IC50 <50 µg/ml [13]: 1.01 µg/mL; Percent viruses neutralized with an IC50 <50 µg/ml [10]: 4%
